Laboratory results: PubChem BioAssay AID1224833 (University of Georgia, 2016)

- Aim: 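Human genes whose knock-down alters rotavirus replication in monkey cells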 (primary screen)
- Cell system: monkey MA104 kidney cells
- Knock-down reagent: siRNA pool against human genes, 50 nM
- Time to read-out: 48 h knock-down before infection; read 24 h after infection
- Treatment: infection with rotavirus strain RV3 two days after transfection; infectious dose for this stage not given
- Read-out: 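Rotavirus antigen per well by fluorescent immunoassay, normalised to non-targeting control wells on each plate and given as a standard z-score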
- Direction: z-score vs non-targeting control: higher = more rotavirus replication than with non-targeting control
- Active means: In these data the active calls have z-score vs non-targeting control at about -1 or lower, or at about 1 or higher
- Meaning of the calls: active = z-score beyond 1 either way; inactive = z-score within 1 of zero
Shown is one part, drawn at random, of about 12,000 deposited reagents. About 5,600 of all reagents (46%) were called active. 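Active calls cover z-scores past 1 in both directions, so they include lowered as well as raised rotavirus replication.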

gene | z-score vs non-targeting control | call
EMSY (GeneID 56946) | 0.724 | inactive
PLTP (GeneID 5360) | -0.675 | inactive
CD28 (GeneID 940) | -0.575 | inactive
KIRREL1 (GeneID 55243) | 1.06 | active
TMEM60 (GeneID 85025) | -0.199 | inactive
ENTPD2 (GeneID 954) | -1.58 | active
DNAJB11 (GeneID 51726) | 0.336 | inactive
HINT2 (GeneID 84681) | -1.19 | active
PHOSPHO1 (GeneID 162466) | -0.696 | inactive
EXOSC3 (GeneID 51010) | -0.566 | inactive
MAGEA4 (GeneID 4103) | -1.26 | active
CUEDC2 (GeneID 79004) | -0.0313 | inactive
APOBEC4 (GeneID 403314) | 1.87 | active
WNT5B (GeneID 81029) | -0.876 | inactive
CCDC125 (GeneID 202243) | 0.204 | inactive
DSC1 (GeneID 1823) | -0.826 | inactive
CD4 (GeneID 920) | -0.496 | inactive
RASGRF1 (GeneID 5923) | 0.274 | inactive
ANO10 (GeneID 55129) | 0.866 | inactive
INTS1 (GeneID 26173) | -1.15 | active
PGAP3 (GeneID 93210) | -1.81 | active
ORAI3 (GeneID 93129) | 0.903 | inactive
DNASE1L1 (GeneID 1774) | -1.21 | active
CPT1C (GeneID 126129) | -1.14 | active
SPANXA2 (GeneID 728712) | -1.02 | active
EME1 (GeneID 146956) | -0.124 | inactive
ATP2A3 (GeneID 489) | -1.89 | active
PEX6 (GeneID 5190) | -1.13 | active
DLST (GeneID 1743) | 1.1 | active
PIGR (GeneID 5284) | 1.28 | active
CENPH (GeneID 64946) | -0.0733 | inactive
SPATA31A3 (GeneID 727830) | 2.21 | active
AXDND1 (GeneID 126859) | -0.983 | inactive
HSPA1B (GeneID 3304) | -3.29 | active
VTA1 (GeneID 51534) | -0.824 | inactive
MYL5 (GeneID 4636) | -0.813 | inactive
HEXA (GeneID 3073) | -0.766 | inactive
SHMT1 (GeneID 6470) | -1.33 | active
GMFG (GeneID 9535) | -0.0199 | inactive
ARHGAP22 (GeneID 58504) | 1.6 | active
EGLN1 (GeneID 54583) | 3.2 | active
C9orf153 (GeneID 389766) | -0.807 | inactive
MEOX1 (GeneID 4222) | -0.616 | inactive
TMEM94 (GeneID 9772) | -0.351 | inactive
SELENOT (GeneID 51714) | 0.0718 | inactive
KLHL10 (GeneID 317719) | -0.606 | inactive
ERLEC1 (GeneID 27248) | -1.83 | active
XKRY (GeneID 9082) | -1.1 | active
OR10G3 (GeneID 26533) | 0.152 | inactive
FRG2 (GeneID 448831) | 0.149 | inactive
ALOX15B (GeneID 247) | -2.27 | active
ZRANB3 (GeneID 84083) | -2.36 | active
AP3B2 (GeneID 8120) | 3.09 | active
CNOT1 (GeneID 23019) | -0.466 | inactive
BBS12 (GeneID 166379) | -1.89 | active
AMN (GeneID 81693) | 2.43 | active
UPK3BL1 (GeneID 100134938) | -0.952 | inactive
DDB2 (GeneID 1643) | 1.95 | active
STX3 (GeneID 6809) | 1.05 | active
LDHA (GeneID 3939) | -0.689 | inactive
CDH10 (GeneID 1008) | -2.37 | active
ZBTB45 (GeneID 84878) | -1.85 | active
MLPH (GeneID 79083) | 0.496 | inactive
GJC1 (GeneID 10052) | -2.75 | active
LGR5 (GeneID 8549) | -1.02 | active
LRRC8B (GeneID 23507) | -0.0601 | inactive
SUV39H1 (GeneID 6839) | -0.538 | inactive
OR1L1 (GeneID 26737) | 0.14 | inactive
F8A2 (GeneID 474383) | 0.709 | inactive
PABPC5 (GeneID 140886) | -0.317 | inactive
TBC1D17 (GeneID 79735) | -1.33 | active
CDCA7 (GeneID 83879) | 1.05 | active
C2orf69 (GeneID 205327) | -2.94 | active
YME1L1 (GeneID 10730) | 1.09 | active
H2AC4 (GeneID 8335) | -1.35 | active

Part of the list above in another layout.
KLHL10 (GeneID 317719)
- z-score vs non-targeting control: -0.606
- call: inactive

ERLEC1 (GeneID 27248)
- z-score vs non-targeting control: -1.83
- call: active

XKRY (GeneID 9082)
- z-score vs non-targeting control: -1.1
- call: active

OR10G3 (GeneID 26533)
- z-score vs non-targeting control: 0.152
- call: inactive

FRG2 (GeneID 448831)
- z-score vs non-targeting control: 0.149
- call: inactive

ALOX15B (GeneID 247)
- z-score vs non-targeting control: -2.27
- call: active
